Results: patent US20080274976A1, “USES OF NOVEL POTASSIUM CHANNEL BLOCKERS” (priority 2002, published 2008)

Sequences of proteins named here, by UniProt entry; tags and fusion partners are left off. A line that says so, or that is headed by a name, gives the form on record, which may keep a tag or linker. Residues count along the entry.
UniProt P08510, whole entry, looked up: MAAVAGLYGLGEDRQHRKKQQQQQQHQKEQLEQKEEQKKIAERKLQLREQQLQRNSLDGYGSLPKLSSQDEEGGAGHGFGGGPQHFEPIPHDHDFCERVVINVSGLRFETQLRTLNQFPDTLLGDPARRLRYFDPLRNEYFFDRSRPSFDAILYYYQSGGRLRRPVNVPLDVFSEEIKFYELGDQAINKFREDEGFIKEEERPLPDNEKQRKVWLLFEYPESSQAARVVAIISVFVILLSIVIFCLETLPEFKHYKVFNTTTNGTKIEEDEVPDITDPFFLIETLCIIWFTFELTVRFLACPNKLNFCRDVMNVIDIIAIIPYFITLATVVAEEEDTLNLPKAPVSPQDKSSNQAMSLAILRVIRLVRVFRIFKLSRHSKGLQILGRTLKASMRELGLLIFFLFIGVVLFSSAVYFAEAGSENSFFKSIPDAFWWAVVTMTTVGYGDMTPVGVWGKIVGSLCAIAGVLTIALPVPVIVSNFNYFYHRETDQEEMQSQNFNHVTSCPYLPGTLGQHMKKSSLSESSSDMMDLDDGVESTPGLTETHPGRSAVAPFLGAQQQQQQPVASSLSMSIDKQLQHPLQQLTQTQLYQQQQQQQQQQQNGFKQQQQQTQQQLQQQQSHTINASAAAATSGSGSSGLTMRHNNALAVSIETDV
UniProt P08510, 1-655 with tags or gaps DEL6-46/K427D: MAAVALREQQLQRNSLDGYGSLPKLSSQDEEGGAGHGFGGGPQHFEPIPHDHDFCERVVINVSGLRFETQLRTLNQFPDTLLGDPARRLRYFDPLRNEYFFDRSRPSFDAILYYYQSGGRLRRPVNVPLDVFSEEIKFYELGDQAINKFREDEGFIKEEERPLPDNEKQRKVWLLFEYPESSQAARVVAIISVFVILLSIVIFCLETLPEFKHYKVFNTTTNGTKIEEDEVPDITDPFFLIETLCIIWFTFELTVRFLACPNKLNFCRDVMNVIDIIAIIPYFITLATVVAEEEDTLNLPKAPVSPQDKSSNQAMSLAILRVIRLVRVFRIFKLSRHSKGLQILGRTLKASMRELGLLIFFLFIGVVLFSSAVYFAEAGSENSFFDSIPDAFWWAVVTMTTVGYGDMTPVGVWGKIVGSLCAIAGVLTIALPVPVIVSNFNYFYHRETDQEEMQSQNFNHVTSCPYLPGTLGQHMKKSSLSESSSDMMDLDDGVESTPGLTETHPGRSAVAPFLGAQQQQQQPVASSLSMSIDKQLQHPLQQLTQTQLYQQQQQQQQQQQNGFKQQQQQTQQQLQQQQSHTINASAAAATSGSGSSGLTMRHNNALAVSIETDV
UniProt P08510, whole entry F425G, looked up: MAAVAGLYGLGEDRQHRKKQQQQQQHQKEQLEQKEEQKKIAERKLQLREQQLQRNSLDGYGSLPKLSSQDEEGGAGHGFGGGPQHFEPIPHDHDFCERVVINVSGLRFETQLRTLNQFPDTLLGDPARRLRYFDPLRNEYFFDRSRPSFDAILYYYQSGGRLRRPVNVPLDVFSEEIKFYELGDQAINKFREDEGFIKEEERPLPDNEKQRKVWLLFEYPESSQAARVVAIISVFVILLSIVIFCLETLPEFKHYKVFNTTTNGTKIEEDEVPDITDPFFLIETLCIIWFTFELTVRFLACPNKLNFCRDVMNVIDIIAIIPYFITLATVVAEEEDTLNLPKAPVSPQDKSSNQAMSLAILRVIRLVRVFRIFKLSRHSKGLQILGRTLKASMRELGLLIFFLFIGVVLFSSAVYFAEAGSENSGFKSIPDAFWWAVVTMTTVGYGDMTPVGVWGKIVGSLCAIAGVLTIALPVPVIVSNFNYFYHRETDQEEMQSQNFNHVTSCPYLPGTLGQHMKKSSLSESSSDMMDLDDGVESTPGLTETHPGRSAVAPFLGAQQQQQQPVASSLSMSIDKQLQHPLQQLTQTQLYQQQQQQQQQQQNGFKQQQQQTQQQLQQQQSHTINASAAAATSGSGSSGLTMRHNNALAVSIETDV
UniProt P08510, whole entry T449Y, looked up: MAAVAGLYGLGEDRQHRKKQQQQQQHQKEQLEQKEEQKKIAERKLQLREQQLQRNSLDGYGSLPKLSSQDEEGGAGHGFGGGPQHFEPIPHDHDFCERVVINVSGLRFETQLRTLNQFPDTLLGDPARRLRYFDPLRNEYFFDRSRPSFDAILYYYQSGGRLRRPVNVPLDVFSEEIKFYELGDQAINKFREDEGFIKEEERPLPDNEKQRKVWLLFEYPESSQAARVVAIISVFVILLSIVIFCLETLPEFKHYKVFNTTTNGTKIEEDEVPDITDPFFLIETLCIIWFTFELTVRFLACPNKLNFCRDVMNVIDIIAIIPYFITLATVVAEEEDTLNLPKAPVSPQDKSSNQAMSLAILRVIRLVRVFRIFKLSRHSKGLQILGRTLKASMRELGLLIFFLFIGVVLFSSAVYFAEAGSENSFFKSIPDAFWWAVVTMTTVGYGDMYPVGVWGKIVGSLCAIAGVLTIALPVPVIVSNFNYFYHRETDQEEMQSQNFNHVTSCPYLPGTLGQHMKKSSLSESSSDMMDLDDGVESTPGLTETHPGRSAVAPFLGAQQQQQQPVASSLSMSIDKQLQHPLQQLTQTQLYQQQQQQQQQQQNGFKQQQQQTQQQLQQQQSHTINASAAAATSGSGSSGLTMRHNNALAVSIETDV
UniProt P04775, whole entry, looked up: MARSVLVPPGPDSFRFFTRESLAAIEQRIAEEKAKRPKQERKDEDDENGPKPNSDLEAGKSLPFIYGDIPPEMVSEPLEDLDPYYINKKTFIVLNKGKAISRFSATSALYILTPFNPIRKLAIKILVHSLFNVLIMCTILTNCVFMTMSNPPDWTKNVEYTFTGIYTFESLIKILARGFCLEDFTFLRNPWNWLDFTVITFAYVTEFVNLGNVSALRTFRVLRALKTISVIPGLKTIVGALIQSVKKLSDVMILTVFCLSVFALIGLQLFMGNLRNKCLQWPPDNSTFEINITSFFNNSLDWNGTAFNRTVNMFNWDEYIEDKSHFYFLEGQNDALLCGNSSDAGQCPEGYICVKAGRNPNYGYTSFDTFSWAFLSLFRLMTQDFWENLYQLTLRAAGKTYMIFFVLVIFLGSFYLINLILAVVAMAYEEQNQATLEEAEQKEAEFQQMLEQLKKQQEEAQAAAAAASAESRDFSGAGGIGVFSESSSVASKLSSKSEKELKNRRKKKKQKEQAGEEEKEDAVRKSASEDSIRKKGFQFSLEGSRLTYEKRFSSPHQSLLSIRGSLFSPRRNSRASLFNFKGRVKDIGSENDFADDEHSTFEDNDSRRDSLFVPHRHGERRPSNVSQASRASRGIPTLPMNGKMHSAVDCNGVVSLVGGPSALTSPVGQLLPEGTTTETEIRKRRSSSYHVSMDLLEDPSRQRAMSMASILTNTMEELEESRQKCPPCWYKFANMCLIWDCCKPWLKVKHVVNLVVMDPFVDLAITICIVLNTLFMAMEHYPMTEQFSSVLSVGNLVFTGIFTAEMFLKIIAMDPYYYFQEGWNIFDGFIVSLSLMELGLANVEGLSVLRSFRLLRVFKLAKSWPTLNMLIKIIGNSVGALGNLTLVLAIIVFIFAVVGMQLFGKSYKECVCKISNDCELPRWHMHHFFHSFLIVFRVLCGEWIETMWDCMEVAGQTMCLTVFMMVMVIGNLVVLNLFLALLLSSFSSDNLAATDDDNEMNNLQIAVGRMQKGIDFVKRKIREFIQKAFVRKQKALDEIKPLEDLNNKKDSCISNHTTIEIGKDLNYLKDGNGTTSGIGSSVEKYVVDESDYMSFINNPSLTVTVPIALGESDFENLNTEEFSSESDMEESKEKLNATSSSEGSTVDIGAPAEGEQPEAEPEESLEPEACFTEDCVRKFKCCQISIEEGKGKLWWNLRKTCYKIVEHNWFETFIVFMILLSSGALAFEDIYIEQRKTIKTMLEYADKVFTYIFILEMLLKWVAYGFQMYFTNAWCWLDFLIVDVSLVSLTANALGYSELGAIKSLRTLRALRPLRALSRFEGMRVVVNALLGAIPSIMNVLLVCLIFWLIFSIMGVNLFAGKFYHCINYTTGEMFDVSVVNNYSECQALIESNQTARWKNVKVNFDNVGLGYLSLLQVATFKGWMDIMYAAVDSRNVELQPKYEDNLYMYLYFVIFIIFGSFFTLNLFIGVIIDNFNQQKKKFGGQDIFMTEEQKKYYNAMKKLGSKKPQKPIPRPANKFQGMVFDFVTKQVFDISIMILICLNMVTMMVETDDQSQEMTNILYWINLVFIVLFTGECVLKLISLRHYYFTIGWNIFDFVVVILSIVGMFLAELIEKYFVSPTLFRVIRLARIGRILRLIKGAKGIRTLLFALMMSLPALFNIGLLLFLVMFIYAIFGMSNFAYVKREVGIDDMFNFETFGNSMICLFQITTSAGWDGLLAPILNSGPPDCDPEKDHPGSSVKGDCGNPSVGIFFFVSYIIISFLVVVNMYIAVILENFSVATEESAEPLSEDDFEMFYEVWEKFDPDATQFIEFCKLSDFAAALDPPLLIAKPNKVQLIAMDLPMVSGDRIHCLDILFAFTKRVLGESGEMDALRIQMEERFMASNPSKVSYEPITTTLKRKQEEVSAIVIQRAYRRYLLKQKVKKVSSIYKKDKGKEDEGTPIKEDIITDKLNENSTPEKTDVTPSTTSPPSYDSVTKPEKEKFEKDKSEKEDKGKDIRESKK
UniProt P15390, whole entry, looked up: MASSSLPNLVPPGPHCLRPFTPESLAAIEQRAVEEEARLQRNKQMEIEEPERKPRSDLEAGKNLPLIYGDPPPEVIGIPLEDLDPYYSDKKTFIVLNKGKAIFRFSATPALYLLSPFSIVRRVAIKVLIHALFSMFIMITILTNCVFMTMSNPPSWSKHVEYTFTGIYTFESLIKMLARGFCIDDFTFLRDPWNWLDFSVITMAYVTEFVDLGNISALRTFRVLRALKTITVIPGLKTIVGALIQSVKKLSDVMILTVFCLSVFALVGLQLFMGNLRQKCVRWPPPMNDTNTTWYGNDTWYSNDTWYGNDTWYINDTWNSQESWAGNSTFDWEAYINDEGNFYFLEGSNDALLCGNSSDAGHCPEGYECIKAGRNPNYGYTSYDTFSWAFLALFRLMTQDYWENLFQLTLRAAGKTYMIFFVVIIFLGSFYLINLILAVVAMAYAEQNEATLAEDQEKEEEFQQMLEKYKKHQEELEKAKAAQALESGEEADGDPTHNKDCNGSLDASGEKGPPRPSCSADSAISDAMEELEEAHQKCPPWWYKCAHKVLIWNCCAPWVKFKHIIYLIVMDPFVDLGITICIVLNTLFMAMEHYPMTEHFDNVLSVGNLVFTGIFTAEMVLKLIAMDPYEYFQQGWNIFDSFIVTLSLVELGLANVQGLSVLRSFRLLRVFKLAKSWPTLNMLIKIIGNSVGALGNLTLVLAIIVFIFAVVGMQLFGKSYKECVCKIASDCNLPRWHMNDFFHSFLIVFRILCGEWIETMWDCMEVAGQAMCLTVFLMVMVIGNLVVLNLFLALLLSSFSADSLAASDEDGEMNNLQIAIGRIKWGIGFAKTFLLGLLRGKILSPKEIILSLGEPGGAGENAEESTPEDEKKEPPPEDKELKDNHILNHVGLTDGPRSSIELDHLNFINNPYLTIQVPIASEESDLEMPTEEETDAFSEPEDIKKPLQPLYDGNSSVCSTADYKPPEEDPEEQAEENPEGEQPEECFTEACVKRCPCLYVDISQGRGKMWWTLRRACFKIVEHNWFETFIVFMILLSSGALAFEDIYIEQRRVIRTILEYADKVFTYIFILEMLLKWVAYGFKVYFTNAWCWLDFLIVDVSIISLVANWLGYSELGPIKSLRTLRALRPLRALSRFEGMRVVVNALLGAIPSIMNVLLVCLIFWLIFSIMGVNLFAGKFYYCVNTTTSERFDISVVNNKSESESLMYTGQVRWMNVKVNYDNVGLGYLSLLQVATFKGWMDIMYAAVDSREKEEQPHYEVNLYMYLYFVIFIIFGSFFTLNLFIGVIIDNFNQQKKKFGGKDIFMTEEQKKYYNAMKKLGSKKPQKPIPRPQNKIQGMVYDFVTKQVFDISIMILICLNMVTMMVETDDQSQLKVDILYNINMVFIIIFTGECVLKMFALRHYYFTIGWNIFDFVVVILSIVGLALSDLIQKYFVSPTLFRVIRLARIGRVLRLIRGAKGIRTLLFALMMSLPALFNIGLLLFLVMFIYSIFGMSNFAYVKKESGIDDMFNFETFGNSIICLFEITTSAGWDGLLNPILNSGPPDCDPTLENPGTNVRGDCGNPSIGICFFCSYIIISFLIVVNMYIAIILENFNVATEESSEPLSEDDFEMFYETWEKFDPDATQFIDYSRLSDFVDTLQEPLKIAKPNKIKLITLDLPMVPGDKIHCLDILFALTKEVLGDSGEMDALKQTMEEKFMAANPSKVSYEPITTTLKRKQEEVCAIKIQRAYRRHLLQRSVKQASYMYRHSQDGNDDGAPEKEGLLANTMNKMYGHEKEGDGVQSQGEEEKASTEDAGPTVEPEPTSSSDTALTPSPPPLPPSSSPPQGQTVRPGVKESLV

What was measured:
TSha1 K^+ channel = assay: Two-electrode voltage clamp, TSha1 K+ channel in Xenopus oocytes; state-dependent block; assay type: cell-based, trout
Shaker K^+ channel = Shaker K^+ channel (Drosophila melanogaster, UniProt P08510)
[1] = molecular target: Nav1.2 (rat brain Type II) (Rattus norvegicus, UniProt P04775); details: 2 μM or 10 μM
[2] = molecular target: Nav1.4 (rat skeletal muscle) (Rattus norvegicus, UniProt P15390)
Shaker-Δ6-46 K427D = Shaker-Δ6-46 K427D (Drosophila melanogaster, UniProt P08510, DEL6-46/K427D); assay: State-dependent block of Shaker-Δ6-46 K427D in Xenopus oocytes
Shaker F425G = Shaker F425G (Drosophila melanogaster, UniProt P08510, F425G); assay: Two-electrode voltage clamp, Shaker F425G mutant in Xenopus oocytes; details: 2 μM toxin
Shaker T449Y = Shaker T449Y (Drosophila melanogaster, UniProt P08510, T449Y); assay: Two-electrode voltage clamp, Shaker T449Y mutant in Xenopus oocytes; details: 2 μM toxin

`CC(C)C[C@@H]1NC(=O)[C@H](CO)NC(=O)[C@@H]2CSSC[C@@H]3NC(=O)[C@@H]4C[C@@H](O)CN4C(=O)[C@H](CC(N)=O)NC(=O)[C@H](CCCNC(=N)N)NC(=O)[C@H](CCCCN)NC(=O)[C@H](CSSC[C@H](NC(=O)[C@H](CO)NC(=O)[C@@H]4C[C@@H](O)CN4C(=O)[C@@H](N)CC(C)C)C(=O)N2)NC(=O)[C@H](C)NC(=O)[C@@H]2C[C@@H](O)CN2C(=O)[C@H](C(C)C)NC(=O)[C@@H]2C[C@@H](O)CN2C(=O)[C@H](CSSC[C@@H](C(=O)N[C@H](C(N)=O)[C@@H](C)O)NC3=O)NC(=O)[C@H](CC(C)C)NC(=O)[C@H](CCCNC(=N)N)NC(=O)[C@H](CC(C)C)NC(=O)[C@H](CC(N)=O)NC1=O` was tested, and the “reversibility of TSha1 block” value (TSha1 K^+ channel; 1 μM toxin) was “reversible”, the “k^(C)off, factor of difference between Shaker-Δ6-46 K427D and Tsha1” value (TSha1 K^+ channel; closed state) was 10 and the “k^(C)off” value (TSha1 K^+ channel; closed state, n=3) was 0.25 ± 0.04 s⁻¹. For the same compound, the “k^(C)on” value (TSha1 K^+ channel; closed state, n=3) was 1.69e+07 ± 6.9e+06 M⁻¹ s⁻¹, the “k^(O)off” value (TSha1 K^+ channel; open state, n=4) was 5.2 ± 1.8 s⁻¹ and the “k^(O)on” value (TSha1 K^+ channel; open state, n=4) was 8.8e+07 ± 2.5e+07 M⁻¹ s⁻¹. For the same compound, the “effect on Shaker-mediated whole cell currents” value (Shaker K^+ channel; 2 μM toxin, test potentials 0, 20 and 40 mV) was “block of the currents”, the Hill coefficient (Shaker K^+ channel; dose response, Shaker channel) was 1 and the “effect on currents of Nav1.2” value [1] was “did not show any detectable effect”. For the same compound, the “effect on currents of Nav1.4” value ([2]; 2 μM or 10 μM) was “did not show any detectable effect”, the “effect on Nav1.4 evoked currents” value ([2]; 10 μM, test potentials −80 to +60 mV) was “no effect” and the “k^(C)off, factor of difference between Shaker-Δ6-46 and Shaker-Δ6-46 K427D” value (Shaker-Δ6-46 K427D; closed state) was “three”. For the same compound, the “k^(C)on, times higher than in the Shaker-Δ6-46 channel” value (Shaker-Δ6-46 K427D; closed state) was “about four”, the “k^(C)off” value (Shaker-Δ6-46 K427D; closed state, n=6) was 2.2 ± 0.9 s⁻¹ and the “k^(C)on” value (Shaker-Δ6-46 K427D; closed state, n=6) was 1.67e+07 ± 8.6e+06 M⁻¹ s⁻¹. For the same compound, the “k^(O)off” value (Shaker-Δ6-46 K427D; open state, n=3) was 19 ± 2.5 s⁻¹, the “k^(O)on” value (Shaker-Δ6-46 K427D; open state, n=3) was 5.7e+07 ± 2.6e+07 M⁻¹ s⁻¹ and the “sensitivity of F425G channel to toxin” value (Shaker F425G) was “insensitive”. For the same compound, the “sensitivity of T449Y channel to toxin” value (Shaker T449Y) was “insensitive”.
